Measurements taken from patent US7033788B2, “Protein derived from Agkistrodon saxatilis emelianov and process preparing the same” (priority 2002, dated 2006).

How the values were obtained:
[1] = test system: human platelet rich plasma; assay: Platelet aggregation inhibition assay, ADP-induced (Example 5); type: cell-based; conditions: human PRP, 25° C.
Method: After ADP was added into each of the PRP solutions to induce the platelet aggregation, the turbidity was measured, respectively (see: FIG. 1). In FIG. 1, (•) represents the degree of platelet aggregation inhibition of Saxatilin; (∘), Salmosin (SEQ ID NO: 10); and (▪), GRGDSP (SEQ ID NO: 7), respectively.

[2] = test system: HUVEC; assay: bFGF-stimulated HUVEC proliferation inhibition assay; type: cell-based, human; conditions: 0, 20, 30 μg/ml; 1 ng/ml bFGF; 72 hr; FIG. 3
Method: It has been known that disintegrins containing RGD sequence which is a part of recombinant Saxatilin (49–51 amino acid sequence), suppress the bFGF-stimulated endothelial cell growth. To investigate whether recombinant Saxatilin containing RGD sequence inhibits the endothelial cell proliferation, proliferation inhibition assay was performed using HUVEC. The activity of Saxatilin was compared with that of Salmosin (SEQ ID NO:10), which is known to inhibit the bFGF-stimulated endothelial cell proliferation.
HUVEC was cultured on 24-well microplate coated with gelatin at 37° C. for 24 hr under an environment of 5% CO2. After the media was replaced with 0.25 ml DMEM containing 5% fetal bovine serum, recombinant Saxatilin obtained from Example 6 and Salmosin were added in a concentration of 0, 20, and 30 μg/ml, respectively. Then, cells were further incubated for 20 min and treated with 1 ng/ml of bFGF solution. After incubation of 72 hr, cells were trypsinized and the cell numbers were counted to determine cell viability (see: FIG. 3).

With Salmosin [reference compound] the IC50 [1] was 173 nM and the “effect on HUVEC growth” value [2] was “inhibited the HUVEC growth in a dose-dependent manner”.
